System: NCCCCNCCCN
Test: purified protein
Settings: 1 mM NAD+, 15 μM TbeIF5A, 5 nM DHS; labelled compound; dead-site mutant

Substance: TbDHSc:DHSp (Trypanosoma brucei brucei TREU927; Q4GZD1:H266A)
- Km: 12 ± 1.8 µM
- kcat: 0.081 s⁻¹

Substance: TbDHSc:DHSp (Trypanosoma brucei brucei TREU927; Q38BX0:E166A)
- Km: 11 ± 1.5 µM
- kcat: 0.12 s⁻¹
